# US20230310414A1
# System: SARS-CoV-2
# Assay: cell viability (CPE) assay, VERO-E6 cells enriched for ACE-2 infected with SARS-CoV-2, CellTiter-Glo
# Format: cell-based
Molecule,EC50 fold lower than when used alone (tetrandrine combined with cepharanthine),EC50 fold lower than when used alone (cepharanthine combined with tetrandrine),SI (selectivity index; CC50/EC50) (compound alone)
"COc1ccc2cc1Oc1ccc(cc1)C[C@H]1c3cc(c(OC)cc3CCN1C)Oc1c(OC)c(OC)cc3c1[C@H](C2)N(C)CC3 [tetrandrine, (1S,14S)-9,20,21,25-tetramethoxy-15,30-dimethyl-7,23-dioxa-15,30-diazaheptacyclo[22.6.2.2^3,6.1^8,12.1^14,18.0^27,31.0^22,33]hexatriaconta-3(36),4,6(35),8,10,12(34),18,20,22(33),24,26,31-dodecaene]",6.24 fold,,
"(14S,27S)-22,33-dimethoxy-13,28-dimethyl-2,5,7,20-tetraoxa-13,28-diazaoctacyclo[25.6.2.2^16,19.1^3,10.1^21,25.0^4,8.0^31,35.0^14,39]nonatri-aconta-1(33),3(39),4(8),9,16(38),17,19(37),21,23,25(36),31,34-dodecaene [cepharanthine]",,30.64 fold,SI: 14.16.
